A mixed list of measured activities; the numbers were collected in NIAID ChemDB.

Shared fields: target-level tests; agent: Hepatitis C virus; protein: Nonstructural protein 5B; endpoint: IC50

a–b is a range or a potency band. An empty or dashed field is not shown. ICn: concentration for n% inhibition. Neighbouring rows are from separate reports.

| compound | method | strain | result |
|---|---|---|---|
| COc1nc(Nc2ccc3cn[nH]c3c2)nc(N2CCN(C)CC2)n1 |  |  | >10 µg/mL |
| CC(=O)c1ccc(CCC2(C3CCCC3)CC(=O)CC(=O)O2)cc1F |  |  | 1–10 µM |
| COc1nc(NCCO)nc(Nc2ccc3[nH]ncc3c2)n1 |  |  | 1–10 µg/mL |
| O=C(Nc1ccsc1-c1nc(C(=O)O)c(O)c(=O)[nH]1)OCc1c(Cl)cccc1Cl | nucleotide incorporation |  | 0.7 µM |
| Nc1nc2cc(CNC(=O)Cn3nc(C(=O)O)cc3OCc3ccccc3-c3ccc(C(F)(F)F)cc3)ccc2s1 |  |  | >12.5 µM |
| CCNc1cc2oc(-c3ccc(F)cc3)c(C(=O)NC)c2cc1OCCCOCC |  |  | ≤0.5 µM |
| O=C1C=C(O)CC(CCc2ccc(OCc3ccc(C(F)(F)F)nc3)cc2)(C2CCCC2)O1 |  |  | 10–50 µM |
| CC(C)CNc1cc(C(=O)Nc2ccc3cn[nH]c3c2)c(F)cc1F |  |  | >10 µg/mL |
| Cc1cc(SC2=C(O)CC(CCC(C)C)(C3CCCC3)OC2=O)c(C(C)(C)C)cc1CO |  |  | >50 µM |
| O=C(Nc1ccc2cn[nH]c2c1)c1cc(NCCN2CCOCC2)c(F)cc1F |  |  | >10 µg/mL |
| O=C(O)CN1C(=O)C(=Cc2ccc(-c3cccc(C(F)(F)F)c3)o2)SC1=S |  |  | ≤1 µM |
| O=C1CC(=O)OC(CCc2ccccc2CO)(C2CCCC2)C1 |  |  | 10–50 µM |
| COc1nc(Nc2ccc3cn[nH]c3c2)nc(-n2ccnc2)n1 |  |  | >10 µg/mL |
| OCc1nnc(-c2ccc(N3CCC(Oc4ccccc4C(F)(F)F)CC3)nn2)o1 | nucleotide incorporation / radiometric | GT1b | 30.1 µM |
| O=C(Nc1ccc2[nH]ncc2c1)c1cc(NCCN2CCOCC2)c(F)cc1F |  |  | 1–10 µg/mL |
| C[C@@]1(O)[C@H](O)[C@@H](COP(=O)([O-])OP(=O)([O-])OP(=O)([O-])O)O[C@H]1n1cnc2c(N)nc(N)nc21 | nucleotide incorporation | WT gt 2a | 2.1 µM |
| N[C@H]1CSSC[C@@H](C(=O)O)NC(=O)CNC(=O)[C@H](Cc2c[nH]c3ccccc23)NC(=O)[C@@H]2CCCN2C(=O)[C@H](Cc2ccccc2)NC1=O |  |  | 50 µM |
| Cc1ccc(-c2ccc(C=C3SC(=S)N(c4ccc(C(=O)O)cc4)C3=O)o2)cc1C |  |  | ≤1 µM |
| CNC(=O)c1c(-c2ccc(Br)cc2)oc2ccc(OC(C)C)cc12 |  |  | ≤0.5 µM |
| COc1nc(NCCN2CCOCC2)nc(Nc2ccc3cn[nH]c3c2)n1 |  |  | >10 µg/mL |
| CNC(=O)c1c(-c2ccc(F)cc2)oc2cc(-c3cc(C4CC4)on3)c(OC(C)C)cc12 |  |  | ≤0.5 µM |
| COc1nc(Nc2ccc3[nH]ncc3c2)nc(NN2CCN(C)CC2)n1 |  |  | 1–10 µg/mL |
| COc1c(-c2ccc3cc(NS(C)(=O)=O)ccc3c2)cc(-n2ccc(=O)[nH]c2=O)cc1C(C)(C)C | nucleotide incorporation | GT 3a#3 | 3.7 µM |
| CCCN(C1=C(O)C[C@@](CCc2cccc(O)c2)(C2CCCC2)OC1=O)c1ccccc1 |  |  | 1–10 µM |
| CNC(=O)N1C[C@H]2COC[C@@H](C1)CN(C(=O)[C@]13C[C@H]1Cc1cc(OC)ccc1-c1c(C4CCCCC4)c4ccc(C(=O)NS(=O)(=O)C(C)C)cc4n1C3)C2 | nucleotide incorporation | 1b | 0.003 µM |
| CC(C)COc1cc(C(=O)O)nn1CC(=O)N[C@H]1CCCC[C@@H]1OCC1CCCCC1 |  |  | >50 µM |
| CCN(CCO)c1cc(C(=O)Nc2ccc3cn[nH]c3c2)c(F)cc1F |  |  | >10 µg/mL |
| Nc1nc(N)c2ncn([C@@H]3CO[C@H](COP(=O)(O)OP(=O)(O)OP(=O)(O)O)O3)c2n1 |  |  | 10 µM |
| COc1ccc(CCC2(C3CCCC3)CC(O)=C(Sc3nnc(C)s3)C(=O)O2)cc1Cl |  |  | <1 µM |
| COc1nc(Nc2ccc3[nH]ncc3c2)nc(N2CCCC2)n1 |  |  | 1–10 µg/mL |
| Nc1nc2cnc(N3CCC(Oc4cc(F)ccc4Br)CC3)nc2s1 | nucleotide incorporation / radiometric | GT1b | >80 µM |
| Nc1ccn([C@H]2CO[C@@H](COP(=O)(O)OP(=O)(O)OP(=O)(O)O)O2)c(=O)n1 |  |  | 7.7 µM |
| CN(C)CCNc1cc(C(=O)Nc2ccc3[nH]ncc3c2)c(F)cc1F |  |  | 0.1–1 µg/mL |
| CNC(=O)c1c(-c2ccc(F)cc2)oc2cc(-c3ccc(S(C)(=O)=O)cc3)c(OC(C)C)cc12 |  |  | ≤0.5 µM |
| O=C(O)c1ccc(N2C(=O)C(=Cc3ccc(-c4ccccc4Cl)o3)SC2=S)cc1 |  |  | ≤1 µM |
| COc1ccc2c(c1)C[C@@H]1C[C@]1(C(=O)N1C[C@H]3CC[C@@H](C1)CN(S(=O)(=O)C(C)C)C3)Cn1c-2c(C2CCCCC2)c2ccc(C(=O)NS(=O)(=O)N(C)C)cc21 | nucleotide incorporation | 1b | 0.003 µM |
| O=C(Nc1ccc2cn[nH]c2c1)c1cc(NCCc2ccccn2)c(F)cc1F |  |  | 1–10 µg/mL |
| O=C(O)C(=O)/C=C(\O)c1cccc(NS(=O)(=O)c2cc(Cl)c(Cl)cc2Cl)c1 |  |  | 0.68 µM |
| CN(C)CCNc1cc(C(=O)Nc2ccc3cn[nH]c3c2)c(F)cc1F |  |  | >10 µg/mL |
| Cc1noc(COc2ccc(CCC3(C4CCCC4)CC(O)=CC(=O)O3)cc2)n1 |  |  | 10–50 µM |
| O=C(O)c1cccc(N2C(=O)C(=Cc3ccc(-c4cc(C(F)(F)F)ccc4Cl)o3)SC2=S)c1 |  |  | ≤1 µM |
| CNC(=O)c1c(-c2ccc(F)cc2)oc2cc(N3CCOCC3)c(OCc3ccncc3)cc12 |  |  | ≤0.5 µM |
| O=C(Nc1ccc2[nH]ncc2c1)c1cc(NCCc2ccccn2)c(F)cc1F |  |  | 1–10 µg/mL |
| COc1ccc(-c2ccc(C=C3SC(=S)N(c4ccc(C(=O)O)cc4)C3=O)o2)cc1 |  |  | ≤1 µM |

Again, the opening 4 rows:

compound,method,strain,result
COc1nc(Nc2ccc3cn[nH]c3c2)nc(N2CCN(C)CC2)n1,,,>10 µg/mL
CC(=O)c1ccc(CCC2(C3CCCC3)CC(=O)CC(=O)O2)cc1F,,,1–10 µM
COc1nc(NCCO)nc(Nc2ccc3[nH]ncc3c2)n1,,,1–10 µg/mL
O=C(Nc1ccsc1-c1nc(C(=O)O)c(O)c(=O)[nH]1)OCc1c(Cl)cccc1Cl,nucleotide incorporation,,0.7 µM